For at least one entry, the source does not settle the construct or the ends of the probe. A weaker result is weaker than the reference pair of the same experiment. Tags and fusion partners may be left off the protein sequences shown.
How the values were obtained:
[1] = target: T1, P34 (Trypanosoma brucei) (UniProt O15758); test: competition with a labelled probe; conditions: needs about 10x more than LoopA/StemV; recombinant protein; protein details: His (pQE-1); label: unlabeled competitor
T1 sequence (looked up, limits assumed): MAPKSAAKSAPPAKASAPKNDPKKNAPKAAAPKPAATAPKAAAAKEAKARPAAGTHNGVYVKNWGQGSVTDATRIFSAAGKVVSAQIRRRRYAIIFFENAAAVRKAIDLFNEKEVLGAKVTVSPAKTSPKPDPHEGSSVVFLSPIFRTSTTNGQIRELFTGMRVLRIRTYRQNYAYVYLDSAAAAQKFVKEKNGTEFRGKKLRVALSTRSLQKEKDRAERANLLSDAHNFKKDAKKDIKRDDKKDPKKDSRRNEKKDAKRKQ

[2] = target: T2, P37 (Trypanosoma brucei) (UniProt O15759); test: competition with a labelled probe; conditions: needs about 10x more than LoopA/StemV; recombinant protein; protein details: His (pQE-1); label: unlabeled competitor
T2 sequence (looked up, limits assumed): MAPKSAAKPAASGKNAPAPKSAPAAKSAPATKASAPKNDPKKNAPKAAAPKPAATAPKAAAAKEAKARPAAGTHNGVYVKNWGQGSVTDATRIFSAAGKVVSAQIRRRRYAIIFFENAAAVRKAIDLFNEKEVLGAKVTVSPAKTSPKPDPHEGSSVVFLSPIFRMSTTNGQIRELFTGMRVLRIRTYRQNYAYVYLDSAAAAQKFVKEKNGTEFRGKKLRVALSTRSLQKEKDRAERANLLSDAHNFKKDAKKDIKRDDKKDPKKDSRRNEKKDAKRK

## GGCCGAAUGCACCAUAUCCCGUCCGAUUUGUGAAGUUAAGCGGCC [beta arm]
[1]
  binding result: binds more weakly
[2]
  binding result: binds more weakly
